Anti-infective test results gathered from many reports (values: NIAID ChemDB through PubChem).

Common to all: whole-cell or culture tests; agent: HIV-1; cell line: CEM; read-out: EC50

An empty or dashed field is not shown. ECn is the concentration giving n% inhibition of infection, replication or growth. Rows are shuffled and stem from different studies.

SMILES	strain	read by	value
Cc1cn([C@H]2C[C@H](F)[C@@H](CO)O2)c(=O)[nH]c1=O	IIIB	microscopy	0.002 µg/mL
Cc1cn([C@H]2C=C[C@@H](COP(=O)(Nc3cc(C(=O)Nc4cc(C(=O)Nc5cc(C(=O)NCCC(=N)N)n(C)c5)n(C)c4)n(C)c3)OC(C)C)O2)c(=O)[nH]c1=O		syncytia	0.65 µM
COC(=O)[C@H](C)NP(=O)(OC[C@@H]1C=C[C@H](n2cc(CC(=O)NCCCCCCCCNC(=O)C(F)(F)F)c(=O)[nH]c2=O)O1)Oc1ccccc1	LAI	RT activity	>100 µM
COc1ccc(S(=O)(=O)N(CC(C)C)CC(O)CN2CCN(Cc3cccnc3)C[C@H]2C(=O)NC(C)(C)C)cc1	IIIB	p24	<1 µM
O=C(c1ccccc1SSc1ccccc1C(=O)N1CCCC1)N1CCCC1		cytopathic effect / XTT	>25 µM
O=S(=O)(O)c1cc(N=Nc2cc(S(=O)(=O)O)c3cccnc3c2O)ccc1/C=C/c1ccc(N=Nc2cc(S(=O)(=O)O)c3cccnc3c2O)cc1S(=O)(=O)O		XTT	1.34 µM
O=C(Cc1cn([C@H]2C=C[C@@H](CO)O2)c(=O)[nH]c1=O)NCCCCCCCCCCNC(=O)c1c2ccccc2nc2ccccc12	LAI	RT activity	>10 µM
O=C(N[C@@H](Cc1ccccc1)C(=O)C(F)(F)N(Cc1ccccc1)S(=O)(=O)c1ccccc1)O[C@H]1CCOC1	IIIB	p24	<1 µM
Cc1cn([C@H]2C[C@H](N=[N+]=[N-])[C@@H](COP(=O)(Nc3cc(C(=O)Nc4cc(C(=O)Nc5cc(C(=O)NCCC(=N)N)n(C)c5)n(C)c4)n(C)c3)OC(C)C)O2)c(=O)[nH]c1=O		syncytia	0.078 µM
Cc1cc(S(=O)(=O)N2CCNC2=O)c(SC(=O)c2ccccc2)cc1Cl		cytopathic effect / XTT	51.7 µM
COc1cccc2c1C(=O)C(C1=C(N)C(=O)c3ccccc3C1=O)=C(Cl)C2=O	IIIB	cytopathic effect / MTT	2.4 µM
NCCCc1cn([C@H]2C=C[C@@H](CO)O2)c(=O)[nH]c1=O	LAI	RT activity	480 µM
N#Cc1ccc(NC(=O)c2ccccc2SSc2ccccc2C(=O)Nc2ccc(C#N)cc2)cc1		cytopathic effect / XTT	15 µM
COC(=O)[C@H](C)NP(=O)(OC[C@H]1C=C[C@@H](n2cc(CC(=O)NCCCCCCNC(=O)C(F)(F)F)c(=O)[nH]c2=O)O1)Oc1ccccc1	LAI	RT activity	>100 µM
COc1ccc2c(c1)C(=O)C(Cl)=C(C1=C(O)c3ccccc3C(=O)C1=O)C2=O	IIIB	cytopathic effect / MTT	5.3 µM
COC(=O)[C@H](C)NP(=O)(OC[C@@H]1C=C[C@H](n2cc(CC(=O)NCCCCCCCCCCCCNC(=O)C(F)(F)F)c(=O)[nH]c2=O)O1)Oc1ccccc1	LAI	RT activity	>10 µM
CCOC(=O)CNC(=O)c1ccccc1SSc1ccccc1C(=O)NCC(=O)OCC		cytopathic effect / XTT	15 µM
[N-]=[N+]=N[C@H]1C[C@H](CO)O[C@@H]1n1cc(F)c(N)nc1=O	LAV	RT activity	3.9 µM
COc1ccc(S(=O)(=O)N(CC2CCCC2)C[C@H](O)CN(CCc2ccccc2)C(=O)O[C@H]2CCOC2)cc1	IIIB	p24	<1 µM
Cc1cc(S(=O)(=O)N2CCNC2=O)c(SCC(N)=O)cc1Cl		cytopathic effect / XTT	>200 µM
COc1ccc(S(=O)(=O)N(CC(C)C)C[C@@H](O)CCN(CC2CCCC2)S(=O)(=O)C2SC(NC(C)=O)=NC2C)cc1	IIIB	p24	<1 µM
Cc1cn([C@H]2C=C[C@@H](COP(=O)(Nc3cc(C(=O)Nc4cc(C(=O)Nc5cc(C(=O)NCCC#N)n(C)c5)n(C)c4)n(C)c3)OC3CCCCC3)O2)c(=O)[nH]c1=O		syncytia	1.39 µM
COc1ccc(OC)c(NC(=O)c2ccccc2SSc2ccccc2C(=O)Nc2cc(OC)ccc2OC)c1		cytopathic effect / XTT	19 µM
COC1=C(C2=C(Cl)C(=O)c3ccccc3C2=O)C(=O)c2cc(OC)ccc2C1=O	IIIB	cytopathic effect / MTT	1.6 µM
Cc1cn([C@@H]2O[C@H](CO)[C@@H](O)[C@@H]2O)c(=O)n(CCF)c1=O	IIIB	microscopy	>400 µg/mL
CC(C)CN(CC(O)CC(=O)N1CCN(Cc2cccnc2)C[C@H]1C(=O)NC(C)(C)C)S(=O)(=O)c1ccccc1	IIIB	p24	<1 µM
Cc1cc(S(=O)(=O)n2cccc2)c(SCC#N)cc1Cl		cytopathic effect / XTT	>200 µM
Cc1cn([C@H]2C=C[C@@H](COP(=O)(Nc3cc(C(=O)Nc4cc(C(=O)Nc5cc(C(=O)NCCC#N)n(C)c5)n(C)c4)n(C)c3)OC(C)C)O2)c(=O)[nH]c1=O		syncytia	1.12 µM
O=c1[nH]c(=O)n([C@H]2C=C[C@@H](CO)O2)cc1CCO	LAI	RT activity	>100 µM
COc1ccc2c(c1)C(=O)C(I)=C(C1=C(O)c3ccccc3C(=O)C1=O)C2=O	IIIB	cytopathic effect / MTT	3.6 µM
Cc1cn([C@H]2C[C@H](N=[N+]=[N-])[C@@H](COP(=O)(Nc3cc(C(=O)Nc4cc(C(=O)Nc5cc(C(=O)NCCC(=N)N)n(C)c5)n(C)c4)n(C)c3)OC3CCCCC3)O2)c(=O)[nH]c1=O		syncytia	0.011 µM
Cc1cc(S(=O)(=O)n2cccc2)c(SCC(N)=O)cc1Cl		cytopathic effect / XTT	5.9 µM
Cc1cn([C@H]2C=C[C@@H](COP(=O)(Nc3cc(C(=O)Nc4cc(C(=O)Nc5cc(C(=O)Nc6cc(C(=O)NCCC(=N)N)n(C)c6)n(C)c5)n(C)c4)n(C)c3)OC(C)C)O2)c(=O)[nH]c1=O		syncytia	5.33 µM
Cc1cn([C@H]2C[C@H](O)[C@@H](CO)O2)c(=O)n(CCF)c1=O	IIIB	microscopy	>400 µg/mL
O=C(Nc1ccc(O)cc1)c1ccccc1SSc1ccccc1C(=O)Nc1ccc(O)cc1		cytopathic effect / XTT	>33 µM
O=S(=O)(O)c1cc(N=Nc2cc(S(=O)(=O)O)c3cccnc3c2O)ccc1CCc1ccc(N=Nc2cc(S(=O)(=O)O)c3cccnc3c2O)cc1S(=O)(=O)O		XTT	1.7 µM
Cc1cn([C@H]2C[C@H](N=[N+]=[N-])[C@@H](COP(=O)(Nc3cc(C(=O)Nc4cc(C(=O)NCCC(=N)N)n(C)c4)n(C)c3)OC3CCCCC3)O2)c(=O)[nH]c1=O		syncytia	0.201 µM
COC1=C(C2=C(Br)C(=O)c3ccccc3C2=O)C(=O)c2ccccc2C1=O	IIIB	cytopathic effect / MTT	1.8 µM
COc1ccc(S(=O)(=O)N(CC(C)C)C[C@@H](O)CCN(CC2CCCC2)S(=O)(=O)Cc2csc(C(C)C)n2)cc1	IIIB	p24	<1 µM
Cc1cn(C2C[C@H](N=[N+]=[N-])[C@@H](COP(=O)(Nc3cc(C(=O)Nc4cc(C(=O)Nc5cc(C(=O)NCCC#N)n(C)c5)n(C)c4)n(C)c3)OC(C)C)O2)c(=O)[nH]c1=O		p24 / antigen	0.065 µM

Again, the opening 4 rows:

Cc1cn([C@H]2C[C@H](F)[C@@H](CO)O2)c(=O)[nH]c1=O ; strain: IIIB ; read by: microscopy ; value: 0.002 µg/mL
Cc1cn([C@H]2C=C[C@@H](COP(=O)(Nc3cc(C(=O)Nc4cc(C(=O)Nc5cc(C(=O)NCCC(=N)N)n(C)c5)n(C)c4)n(C)c3)OC(C)C)O2)c(=O)[nH]c1=O ; read by: syncytia ; value: 0.65 µM
COC(=O)[C@H](C)NP(=O)(OC[C@@H]1C=C[C@H](n2cc(CC(=O)NCCCCCCCCNC(=O)C(F)(F)F)c(=O)[nH]c2=O)O1)Oc1ccccc1 ; strain: LAI ; read by: RT activity ; value: >100 µM
COc1ccc(S(=O)(=O)N(CC(C)C)CC(O)CN2CCN(Cc3cccnc3)C[C@H]2C(=O)NC(C)(C)C)cc1 ; strain: IIIB ; read by: p24 ; value: <1 µM